From paper PMC6221947 (Structure (London, England : 1993), 2018)

Tested on: NCCCCNCCCN
Experiment: purified protein
Conditions: 1 mM NAD+, 15 μM TbeIF5A, 5 nM DHS; labelled compound; dead-site mutant

Substance	Km	kcat
TbDHSc:DHSp (Trypanosoma brucei brucei TREU927; Q4GZD1:H266A)	12 ± 1.8 µM	0.081 s⁻¹
TbDHSc:DHSp (Trypanosoma brucei brucei TREU927; Q38BX0:E166A)	11 ± 1.5 µM	0.12 s⁻¹
